Values from PubChem BioAssay AID1259414 (Drosophila RNAi Screening Center, 2018).
Aim: 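Fly genes that alter Wolbachia amount inside host cells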 (primary screen). Cells: Drosophila JW18 cells infected with Wolbachia. Reagent: long dsRNA against Drosophila genes, 0.25 µg dsRNA per well of a 384-well plate. Timing: 5 days. Conditions: cells persistently infected with Wolbachia before knock-down; no added drug. Measurement: 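Imaged fluorescence in situ signal for Wolbachia 23S rRNA per DAPI-counted host cell, given as a robust z-score within each plate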. Reading the numbers: Wolbachia per cell robust z: higher = more Wolbachia per host cell than the plate typical. Hit rule: 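Active if absolute robust z reaches 1.5 in two or more of three replicates, leaving out multi- or no-target dsRNAs, genes unexpressed in JW18 and A1 wells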.
The deposit covers about 24,000 reagents; this is a random part of those with a known target gene and a result. Over the whole deposit, about 1,210 (5%) are marked active. 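Inactive calls also include excluded dsRNAs with several or no targets, genes unexpressed in JW18, and well A1, regardless of score.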 Unmarked entries are inactive. A plus sign joins genes that one reagent is predicted to hit.

gene	amplicon	Wolbachia per cell robust z, rep 1	Wolbachia per cell robust z, rep 2	Wolbachia per cell robust z, rep 3
CG12229	DRSC09868	-0.512	0.77	-0.433
ND-SGDH (NADH dehydrogenase (ubiquinone) SGDH subunit)	DRSC11102	-0.253	-0.984	-0.29
CG1958	DRSC18196	-6.59	-0.502	-1.4
CG1958	DRSC25599	-2.51	-0.708	-1.27
CG43667 + CG43668 + CG43666	DRSC03829	-0.309	-0.693	-0.413
CG31036	DRSC15055	0.934	0.852	0.337
CG31036	DRSC15057	-4.87	-3.32	-3.82
CG12674	DRSC00348	0.648	-0.578	-0.89
CG34175	DRSC00424	-1.49	-0.45	-0.971
CG34175	DRSC41480	-1.58	-1.83	0.496
CG5577	DRSC10519	0.118	0.314	1.11
CG5577	DRSC41367	-0.557	-0.195	0.287
PolD1 (DNA polymerase delta subunit 1)	DRSC11138	0.0253	-0.545	0.0712
PolD1 (DNA polymerase delta subunit 1)	DRSC28966	1.59	0.989	-0.357
c(3)G (crossover suppressor on 3 of Gowen)	DRSC15245	-0.0548	0.771	-5.3
c(3)G (crossover suppressor on 3 of Gowen)	DRSC26062	-0.152	-0.155	-0.622
D1 (D1 chromosomal protein)	DRSC16638	-0.711	0.208	0.788
Cp38 (Chorion protein 38)	DRSC18453	0.659	0.0438	0.497
Atu (Another transcription unit)	DRSC12123	0.563	-0.35	0.479
peb (pebbled)	DRSC23057	-3.65 (active)	-2	-4.34
peb (pebbled)	DRSC26695	-0.276	2.58	-1.06
mid (midline)	DRSC02977	-5.14	-4.05	-4.02
mid (midline)	DRSC21493	0.764	0.699	-0.518
mid (midline)	DRSC25557	-1.18	-0.171	-1.74
CG12692	DRSC17881	1.23	0.599	-0.147
RhoGAP15B (Rho GTPase activating protein at 15B)	DRSC19924	0.167 (active)	-1.51	-7.23
RhoGAP15B (Rho GTPase activating protein at 15B)	DRSC19925	1.4	0.61	-0.251
croc (crocodile)	DRSC11884	0.157	1.24	1.97
croc (crocodile)	DRSC29346	0.708	-0.957	-0.141
Arp1 (Actin-related protein 1)	DRSC14118	1.35 (active)	1.57	1.76
Arp1 (Actin-related protein 1)	DRSC26164	-0.529	-0.942	-0.146
Sld5	DRSC14892	-0.0307	-0.635	-0.263
Sld5	DRSC41448	-2.38 (active)	-2.53	-0.981
wuc (Wake-up-call)	DRSC06152	0.822	0.576	1.22
wuc (Wake-up-call)	DRSC41520	0.169	1.08	1.14
CG5084	DRSC06913	-0.0712	-1.1	-0.308
CG5084	DRSC27650	-1.05	-2.1	-1.5

Targets listed so far whose target name begins with M or m (3):
gene	amplicon	Wolbachia per cell robust z, rep 1	Wolbachia per cell robust z, rep 2	Wolbachia per cell robust z, rep 3
mid (midline)	DRSC02977	-5.14	-4.05	-4.02
mid (midline)	DRSC21493	0.764	0.699	-0.518
mid (midline)	DRSC25557	-1.18	-0.171	-1.74

Continued.
gene	amplicon	Wolbachia per cell robust z, rep 1	Wolbachia per cell robust z, rep 2	Wolbachia per cell robust z, rep 3
Ack (Activated Cdc42 kinase)	DRSC08135	-2.75	0.0829	-0.653
Ack (Activated Cdc42 kinase)	DRSC28013	0.523	0.517	0.723
GlcAT-S (Glucuronyltransferase S)	DRSC02731	0.598	1.69	0.511
GlcAT-S (Glucuronyltransferase S)	DRSC27771	0.0837	-1.87	-0.157
CG6333	DRSC10626	0.152	0.584	0.371
CG4459	DRSC15582	-0.988	0.532	0.506
CG42853	DRSC40527	0.405	0.483	0.451
alphaTub85E (alpha-Tubulin at 85E)	DRSC16899	0.582	0.757	2.87
alphaTub85E (alpha-Tubulin at 85E)	DRSC23424	1.03	2.59	-3.96
CG13373	DRSC27059	0.437	0.477	3.13
superdeath (Suppressor of ER stress-induced death)	DRSC14868	-1.53	0.232	0.419
superdeath (Suppressor of ER stress-induced death)	DRSC24146	0.486	-0.0752	-0.0353
CG13895	DRSC08365	0.401	1.34	0.891
CG17648	DRSC00508	-5.49	-0.588	0.101
pug (pugilist)	DRSC17036	-0.648	-0.597	-5.32
pug (pugilist)	DRSC29896	0.064	0.0408	0.974
glob2 (globin 2)	DRSC12560	-0.495	-0.704	-0.437
pon (partner of numb)	DRSC18823	-0.36	-0.825	-4.64
CG1572	DRSC19686	-3.38	0.0463	-0.916
GstE14 (Glutathione S transferase E14)	DRSC06881	0.229	0.48	-2.04
GstE14 (Glutathione S transferase E14)	DRSC26779	-6.61	1.08	0.0571
CG6567	DRSC16066	0.475	0.483	-0.774
CG43386 + CG1889	DRSC17979	0.766	0.852	1.09
CG12057	DRSC17797	0.585	-0.186	-1.11
Claspin	DRSC08308	-2.36	-1.07	0.43
twe (twine)	DRSC03628	-0.0372	-0.243	0.621
twe (twine)	DRSC27109	0.422	0.288	0.246
CG8785	DRSC07266	0.395	-0.145	0.591
CG5897	DRSC10555	1.2	0.731	-6.1
Rrp5 (Ribosomal RNA Processing 5)	DRSC15862	-0.176	-0.417	-0.277
Rrp5 (Ribosomal RNA Processing 5)	DRSC29039	-0.334	-6.95	-1.48
Surf4 (Surfeit 4)	DRSC16875	-0.763	-0.666	0.513
tilB (touch insensitive larva B)	DRSC20634	-0.696	-1.65	-0.126
Pvf2 (PDGF- and VEGF-related factor 2)	DRSC00968	1.47	1.35	0.119
Pvf2 (PDGF- and VEGF-related factor 2)	DRSC02283	0.00593 (active)	4.45	1.88
CG17344	DRSC02607	1.49	-1.3	1.11
CG10182	DRSC14202	0.45	-0.79	0.668
CG10182	DRSC25451	0.204	-0.813	-0.448
CG10182	DRSC39074	0.0132	0.55	0.402
futsch	DRSC17688	0.969	0.755	-0.244
futsch	DRSC17949	-0.911	-4.63	-0.697
futsch	DRSC17952	0.189	-0.956	0.617
futsch	DRSC18543	0.26	0.577	0.226
futsch	DRSC26427	0.66	-0.215	0.389
Sgs5 (Salivary gland secretion 5)	DRSC16862	0.463	0.677	1.07
CG33978	DRSC38804	0.435	1.1	0.546
mTTF (mitochondrial transcription termination factor)	DRSC01909	-0.71	-1.12	0.27
ImpL1 (Ecdysone-inducible gene L1)	DRSC11197	-8.96	-1.03	0.408
ImpL1 (Ecdysone-inducible gene L1)	DRSC28367	0.448	1.29	0.594
Gem3 (Gemin 3)	DRSC11144	0.00467	-0.00941	-0.0673
